Measurements published in ChEMBL document CHEMBL5376009 (RSC Med Chem, 2024).

Test system: unidentified influenza virus
Assay: Antiviral activity against recombinant influenza virus WSN harboring PB1 456H codon infected in MDCK cells assessed as reduction in cytopathic effect by fluorescence based analysis
Settings: strain WSN

## COCCCn1c2c(c(SCc3ccc(Cl)cc3)nc1=O)CCC2
  IC50: 0.3 µM
